Experimental data: article PMC8705706, “Benzimidazole Derivatives as New and Selective Inhibitors of Arginase from Leishmania mexicana with Biological Activity against Promastigotes and Amastigotes” (International Journal of Molecular Sciences, 2021)

Tested on: Promastigotes of L. mexicana (MNYC/BZ/62/M379)
Experiment: Biological activity against promastigotes, resazurin
Assay type: cell-based, Leishmania mexicana
Conditions: SI = CC50/IC50, J774.2 versus promastigotes
Procedure: Promastigotes of L. mexicana (MNYC/BZ/62/M379 reference strain) were grown in Schneider’s medium supplemented with fetal bovine serum 10% (v/v), ampicillin (100 U/mL)/streptomycin (100 µg/mL). Parasites were collected at log phase to assess the compounds and 5 × 10^5 promastigotes were seeded in a 96-wells plate. Compounds were previously dissolved in dimethyl sulfoxide (DMSO) up to a concentration of 1 mg/mL. Thereafter, serial dilutions were made with culture medium from 100 µg/mL to 0.8 µg/mL and then they were added to the wells by triplicates. Parasites non treated and treated with Glucantime, Amphotericin B and Miltefosine were included as […]. Parasites were incubated at 26 °C during 48 h and resazurin 2.5 mM was added at the end into each well. Afterwards, fluorescence intensity was measured with excitation/emission 535/590 nm in a spectrofluorometer (Infinite 200, Tecan Group Ltd., Mannedorf, Switzerland). Finally, half maximal inhibitory concentration (IC50) was determined through a Probit analysis. The assays were made by triplicate in 3 independent experiments.

Row | Compound | SI Promastigotes
1 | C[C@@H]1[C@H](O)[C@@H](C)/C=C/C=C/C=C/C=C/C=C/C=C/C=C/[C@H](O[C@@H]2O[C@H](C)[C@@H](O)[C@H](N)[C@@H]2O)C[C@@H]2O[C@](O)(C[C@@H](O)C[C@@H](O)[C@H](O)CC[C@@H](O)C[C@@H](O)CC(=O)O[C@H]1C)C[C@H](O)[C@H]2C(=O)O [Amphotericin B] | 8.3
2 | CCCCCCCCCCCCCCCCOP(=O)([O-])OCC[N+](C)(C)C [Miltefosine] | 17.4
